The text below walks through data of PMC10033279, “Mutation of a distal gating residue modulates NADH binding in NADH:Quinone oxidoreductase from Pseudomonas aeruginosa PAO1” (The Journal of Biological Chemistry, 2023).

The data set has as its system NC(=O)C1=CN([C@@H]2O[C@H](COP(=O)(O)OP(=O)(O)OC[C@H]3O[C@@H](n4cnc5c(N)ncnc54)[C@H](O)[C@@H]3O)[C@@H](O)[C@H]2O)C=CC1. Nature of the data set: purified protein. Particulars: varied 1,4-benzoquinone, 20 mM KPi, 200 mM NaCl, pH 7.0, 25 °C.
Broadly, the Km is the concentration of substrate that gives half-maximal velocity. What is called kcat is the maximal rate divided by the concentration of active sites. For the substance “NADH:quinone oxidoreductase (NQO), PA1024 (Pseudomonas aeruginosa PAO1; Q80E)”, the Km amounted to 120 ± 10 µM and the kcat amounted to 20 ± 1 s⁻¹.

In the case of “NADH:quinone oxidoreductase (NQO), PA1024 (Pseudomonas aeruginosa PAO1; Q80G)”, the Km was 360 ± 15 µM and the kcat amounted to 27 ± 1 s⁻¹.

In the case of “NADH:quinone oxidoreductase (NQO), PA1024 (Pseudomonas aeruginosa PAO1; Q80L)”, the Km is 180 ± 8 µM and the kcat is 23 ± 1 s⁻¹.
